Assay results taken from article PMC10184898 (2023).

Target: His-MoMagA^G187S (Magnaporthe oryzae, UniProt O13314 1-356, G187S)
Assay: MST

B1: His-MoRgs7 (natural protein)
chain: MANATSTPAVPAPRLNTGPVSIFFMVWGVTWTVLLVLGMAFLYYNRAMPLVRVRGLRLTFAAVILLHLYWILCQFGLLIFEYVPPEIMFWVMGMYVPWGIALFHASNSRFLYVAEAQKRFVGKAPAARQKPSASKNKTLLGKFWRLEYERRIVVVVCVGMALQFLLLVTMYLLSRKYHPSFGIPGTEVTTTNPMERLMQLYSGWEWWPSILWQFFWAWLVAPYILFKSRGIKDTLGWRVQTIACCIAGLPATPLWLAALYLPAFGPVNQYFIPPQWICVSITFIEFFAIILPCWQVLTHKTLRRETLDAIANWESRRGGDKDGKQSFASESTRQESTTSTWRLLSEIEKATGQSESLFTMAALDYMLKRNPEPLREFSALRDFSGENIAFLSAVSDWKAGAAEPKAPTDKTPAHSEEGVELRRVRFNDALHIYAEFVSPRHAEFQVNIGSADQKQLEAVFGPAAQILLGDSQRFDDLAVPFEMESTGEGVERVRAQYFGEIPDEFSDQVFDDAEVSIKYLVLTNTWPKFVKQGRYSMSINSVVSQSSDGSAEKEIGRVKKYLKRMKFGGAAL
**Q.** How did the Kd turn out when B1 was run?
**A.** The Kd was 462 nM.
